Measured values from several laboratories, pooled; numbers as filed in NIAID ChemDB.

Shared fields: tests in culture; organism: Cryptococcus neoformans

a–b is a range or a potency band. Blank or dashed fields: not listed here. Lines come from different laboratories, so protocols vary. ECn: concentration that inhibits the pathogen or its effect by n%. MIC50, MIC90 and the like: level of inhibition, or share of isolates inhibited.

| compound | endpoint | method | strain | value |
|---|---|---|---|---|
| CCCOc1ccc2nc(NC(=O)OC)[nH]c2c1 | EC50 |  | IU4 | 2.3 µg/mL |
| CCC(C)n1ncn(-c2ccc(N3CCN(c4ccc(OC[C@H]5CO[C@](Cn6cncn6)(c6ccc(Cl)cc6Cl)O5)cc4)CC3)cc2)c1=O | MIC50 |  |  | 0.03–0.06 µg/mL |
| COc1cccc(C(=O)/C=C/c2cc3ccccc3cc2OC)c1 | MIC |  | ATCC 32264 | >50 µg/mL |
| CNC1C(C)OC(O[C@H]2c3cc(C)c(C(=O)NC(C)C(=O)OC)c(O)c3-c3c(cc4c(c3O)C(=O)c3cc(OC)cc(O)c3C4=O)[C@@H]2O)C(O)C1OC1OC(CO)C(O)C(O)C1F | MIC |  | IAM 4514 | 3.1 µg/mL |
| CC[C@@]1(OC(=O)CN)C(=O)OCc2c1cc1n(c2=O)Cc2cc3cc4c(cc3nc2-1)OCO4 | MIC |  | H99 | 1.56 µg/mL |
| COc1ccc(C(=O)/C=C/c2ccc3ccccc3c2)c(OC)c1 | MIC |  | ATCC 32264 | >50 µg/mL |
| CCC(C)CC(C)CCCCCCCCC(=O)N[C@H]1C[C@@H](O)[C@@H](OCCN)NC(=O)[C@@H]2C[C@@H](O)CN2C(=O)[C@H]([C@H](O)CCN)NC(=O)[C@H]([C@H](O)[C@@H](O)c2ccc(O)cc2)NC(=O)[C@@H]2C[C@@H](O)CN2C(=O)[C@H]([C@@H](C)O)NC1=O | MIC |  | MY2062 | 16 µg/mL |
| O=C(O)c1ccccc1O | EC50 | broth dilution / turbidity | CBS 132 | 0.35 µM |
| O=C(O)C(Cc1c[nH]c2ccccc12)[NH][Sn]([c]1ccccc1)([c]1ccccc1)[c]1ccccc1 | MIC |  |  | <12.5 µg/mL |
| COc1cc(C(=O)CC(c2cc(OC)c(OC)c(OC)c2)C(C#N)C#N)cc(OC)c1OC | MIC |  | ATCC 32264 | >50 µg/mL |
| CN[C@@H]1[C@H](O[C@@H]2OC[C@@H](O)[C@H](O)[C@H]2O)[C@@H](O)[C@H](O[C@H]2c3cc(C)c(C(=O)N[C@@H](CC(=O)O)C(=O)O)c(O)c3-c3c(cc4c(c3O)C(=O)c3cc(OC)cc(O)c3C4=O)[C@@H]2O)O[C@@H]1C | MIC |  | IAM 4514 | >100 µg/mL |
| CNC1C(C)OC(O[C@H]2c3cc(C)c(C(=O)NC(C)C(=O)O)c(O)c3-c3c(cc4c(c3O)C(=O)c3cc(OC)cc(O)c3C4=O)[C@@H]2O)C(O)C1OC1OCC(O)C(O)C1OC1OCC(O)C(O)C1O | MIC |  | IAM 4514 | 25 µg/mL |
| COc1cc2occ(-c3ccc(O)cc3)c(=O)c2c(OC)c1CC=C(C)C | MIC | broth dilution | IP 90526 | 50 µg/mL |
| C=C(CC[C@@H](C)[C@H]1C[C@@H](O)[C@@]2(C(=O)O)C3=C(CC[C@]12C)[C@@]1(C)CC[C@H](O[C@@H]2O[C@@H](CO)[C@H](OC)[C@@H](O)[C@@H]2O)C(=C)[C@@H]1CC3)C(C)C | MIC |  | MY2061 | >64 µg/mL |
| Nc1ccc(S(=O)(=O)Nc2ncccn2)cc1 | MIC50 |  |  | 320 µg/mL |
| COc1cc(O)c2c(c1)C(=O)c1c(cc3c(c1O)-c1c(cc(C)c(C(=O)NC(C)C(=O)O)c1O)[C@H](OC1OC(C)C4C(O[C@H](OCCO)CN4C)C1O)[C@H]3O)C2=O | MIC |  | IAM 4514 | 3.1 µg/mL |
| CC[C@@]1(OC(=O)CN)C(=O)OCc2c1cc1n(c2=O)Cc2cc3c(N)c4c(cc3nc2-1)OCO4 | MIC |  | H99 | >100 µg/mL |
| CN(C/C=C/c1ccccc1)Cc1cccc2ccccc12 | MIC |  | 4 strains | 17.8 µg/mL |
| CN[C@@H]1[C@H](O[C@@H]2OC[C@@H](O)[C@H](O)[C@H]2O)[C@@H](O)[C@H](O[C@H]2c3cc(C)c(C(=O)OCC(=O)O)c(O)c3-c3c(cc4c(c3O)C(=O)c3cc(OC)cc(O)c3C4=O)[C@@H]2O)O[C@@H]1C | MIC |  | IAM 4514 | >100 µg/mL |
| O=Cc1cccc(O)c1O | EC50 | broth dilution / turbidity | CBS 132 | 0.03 µM |
| C[C@@H](c1nc(-c2ccc(C#N)cc2)cs1)[C@](O)(Cn1cncn1)c1cc(F)ccc1F | MIC |  |  | 0.002–0.5 µg/mL |
| CC(=O)OC1C=COC=C2CC34SSC5(CC6=COC=CC(OC(C)=O)C6N5C3=O)C(=O)N4C21 | MIC |  | E138 | 10 µg/mL |
| C=C(Cl)/C=C/[C@H](O)CC(=C)C[C@H]1OC2[C@@H](O)[C@]3(O)C[C@@H](O)[C@H](C)[C@H](CCC/C=C\[C@@H]4C[C@@H](O)C[C@]5(C[C@H](OC)CC(CC(=O)[C@@H](C)[C@H](OC(C)=O)[C@@H](C)C(=C)C[C@@H]6C[C@@](C)(O)C[C@]7(C[C@H](OC(C)=O)CC(CC(=O)O[C@@H]([C@@H]1O)[C@H]2C)O7)O6)O5)O4)O3 | MFC |  | ATCC90112 | 3.12 µg/mL |
| Nc1ccc(S(=O)(=O)c2ccc(N)cc2)cc1 | MIC50 |  |  | 0.008–8 µg/mL |
| COc1ccc(C(OC)C(O)c2cc(OC)c(OC)c(OC)c2)cc1 | MIC | broth dilution | IP 90526 | 100 µg/mL |
| CCCCCCCCOCCCCC(=O)O | MIC |  |  | 300 µM |
| CNC1C(C)OC(O[C@H]2c3cc(C)c(C(=O)NC(C)C(=O)OC)c(OC4OC(CO)C(O)C(O)C4O)c3-c3c(cc4c(c3O)C(=O)c3cc(OC)cc(O)c3C4=O)[C@@H]2O)C(O)C1OC1OC(CO)C(O)C(O)C1O | MIC |  | IAM 4514 | 0.8 µg/mL |
| CN[C@@H]1[C@H](O[C@@H]2OC[C@@H](O)[C@H](O)[C@H]2O)[C@@H](O)[C@H](O[C@H]2c3cc(C)c(C(=O)N[C@@H](CO)C(=O)O)c(O)c3-c3c(cc4c(c3O)C(=O)c3cc(OC)cc(O)c3C4=O)[C@@H]2O)O[C@@H]1C | MIC |  | IAM 4514 | 25 µg/mL |
| c1ccc2[nH]c(-c3cscn3)nc2c1 | EC50 |  | IU4 | <4 µg/mL |
| C(=C\c1ccccc1)/CN(Cc1cccc2ccccc12)n1cncn1 | MIC |  |  | >200 µM |
| CN[C@@H]1[C@H](O[C@@H]2OC[C@@H](O)[C@H](O)[C@H]2O)[C@@H](O)[C@H](O[C@H]2c3cc(C)c(C(=O)NCS(=O)(=O)O)c(O)c3-c3c(cc4c(c3O)C(=O)c3cc(OC)cc(O)c3C4=O)[C@@H]2O)O[C@@H]1C | MIC |  | IAM 4514 | >50 µg/mL |
| O=C1N2C3C(=COC=CC3O)CC23SSC12CC1=COC=CC(O)C1N2C3=O | EC50 |  | E138 | 1 µg/mL |
| COc1cc(O)c2c(c1)C(=O)c1c(cc3c(c1O)-c1c(cc(C)c(C(=O)NC(C)C(=O)O)c1O)[C@H](OC1OC(CO)C(O)C(O)C1O)[C@H]3O)C2=O | MIC |  | IAM 4514 | >100 µg/mL |
| CC(C)[C@@H](C)/C=C/[C@@H](C)[C@H]1CCC2=C3[C@@H](O)C4OC45C[C@@H](OC(=O)[C@@H](N)[C@@H](OS(=O)(=O)O)C(C)C)CC[C@]5(C)[C@H]3CC[C@@]21C(=O)O | MIC |  | MY2062 | >32 µg/mL |
| CCC[CH2][Sn](=[O])[CH2]CCC | MIC |  |  | 50 µg/mL |
| CCCOCCCCCCCCCC(=O)O | MIC |  |  | 300 µM |
| CCC(C)CC(C)CCCCCCCCC(=O)N[C@H]1C[C@@H](O)[C@H](NCCN)NC(=O)[C@@H]2[C@@H](O)CCN2C(=O)[C@H]([C@H](O)CCN)NC(=O)[C@H]([C@H](O)[C@@H](O)c2ccc(O)cc2)NC(=O)[C@@H]2C[C@@H](O)CN2C(=O)[C@H]([C@@H](C)O)NC1=O | MIC |  | MY2062 | 16 µg/mL |
| O=C(/C=C/c1ccc([N+](=O)[O-])cc1)c1ccccc1 | MIC |  | ATCC 32264 | >50 µg/mL |
| [CH3][Sn]([CH3])([CH3])[NH]C(Cc1c[nH]c2ccccc12)C(=O)O | MIC |  |  | 50 µg/mL |
| COc1ccc(C(=O)/C=C/c2ccc(N(C)C)cc2)cc1OC | MIC |  | ATCC 32264 | >50 µg/mL |
| CCN(CC)CCCC(C)Nc1c2ccc(Cl)cc2nc2ccc(OC)cc12 | MIC50 |  |  | 0.21–16 µg/mL |
| CN(C/C=C/C#CC(C)(C)C)Cc1cccc2ccccc12 | MIC |  | 3 strains | 2.18 µg/mL |
| COc1cc2cc(/C=C/C(=O)c3ccc(Cl)cc3)c(Cl)nc2cc1OC | MIC |  | ATCC 32264 | >50 µg/mL |
| CC[C@@H]([C@H](C)O)n1ncn(-c2ccc(N3CCN(c4ccc(OC[C@@H]5CO[C@@](Cn6cncn6)(c6ccc(F)cc6F)C5)cc4)CC3)cc2)c1=O | MIC90 |  |  | 0.016–0.125 µg/mL |
| O=C(/C=C/c1cc2ccccc2nc1Cl)c1ccccc1 | MIC |  | ATCC 32264 | >50 µg/mL |
| COC(=O)Nc1nc2ccc(C(=O)c3cccs3)cc2[nH]1 | EC50 |  | ATCC 14116 | <0.29 µg/mL |
| c1ccc2[nH]c(-c3cscn3)nc2c1 | MIC50 |  |  | 0.12–128 µg/mL |
| COc1cc(O)c2c(c1)C(=O)c1c(cc3c(c1O)-c1c(cc(C)c(C(=O)NC(C)C(=O)O)c1O)[C@H](OC1OC(C)CC(=O)C1O)[C@H]3O)C2=O | MIC |  | IAM 4514 | 6.3 µg/mL |
| COc1ccc(NS(=O)(=O)c2ccc(N)cc2)nn1 | MIC50 |  |  | 0.62–640 µg/mL |
| CCCCCCCCCOCCCC(=O)O | MIC |  |  | 300 µM |
| C(=C\c1ccccc1)/CN(Cc1cccc2ccccc12)n1cnnc1 | MIC |  |  | >200 µM |

Repeating the first 3 entries:

compound	endpoint	method	strain	value
CCCOc1ccc2nc(NC(=O)OC)[nH]c2c1	EC50		IU4	2.3 µg/mL
CCC(C)n1ncn(-c2ccc(N3CCN(c4ccc(OC[C@H]5CO[C@](Cn6cncn6)(c6ccc(Cl)cc6Cl)O5)cc4)CC3)cc2)c1=O	MIC50			0.03–0.06 µg/mL
COc1cccc(C(=O)/C=C/c2cc3ccccc3cc2OC)c1	MIC		ATCC 32264	>50 µg/mL